Compound potency records, mixed from different reports. Data source: NIAID ChemDB in PubChem.

All rows: whole-cell or culture tests; agent: Aspergillus flavus; measure: zone

Rows are shuffled and stem from different studies.

structure	strain	read by	tested at	result
COc1ccccc1/C=C1\SC(c2ccccc2OC)N(NC(=O)CNC(=O)c2ccncc2)C1=O	-	agar diffusion	50 µg/mL	10 mm
C[C@H]1[C@H](O)[C@@H](C)/C=C/C=C/C=C/C=C/C=C/C=C/C=C/[C@H](O[C@@H]2O[C@H](C)[C@@H](O)[C@H](N)[C@@H]2O)C[C@@H]2O[C@](O)(C[C@@H](O)C[C@@H](O)CC[C@H](O)[C@@H](O)C[C@@H](O)CC(=O)O[C@H]1C)C[C@H](O)[C@H]2C(=O)O	ATCC 28542	agar diffusion	1 mg/mL	18 mm
COc1ccc(-c2nn(-c3ccccc3)cc2C2CC(c3ccc(SC)cc3)=NN2c2ccccc2)cc1	-	-	500 µg/mL	0 mm
O=C(NN1C(=O)CSC1C1C(c2ccccc2)=Nc2ccc(Cl)cc21)N1c2ccccc2C=Cc2ccccc21	MTCC-1973	agar diffusion	500 µg/mL	12 mm
O=C(CNC(=O)c1ccncc1)NN1C(=O)/C(=C/c2ccc(Cl)cc2)SC1c1ccc(Cl)cc1	-	agar diffusion	50 µg/mL	17 mm
Cc1ccc(N=Cc2c(-c3c(O)c4ccccc4n(C)c3=O)[nH][nH]c2=O)cc1	ATCC 28542	agar diffusion	1 mg/mL	20 mm
Cc1ccc(C2SCC(=O)N2NC(=O)CNC(=O)c2ccncc2)cc1	-	agar diffusion	100 µg/mL	12 mm
Cn1c(=O)c(-c2[nH][nH]c(=O)c2N=Nc2ccccc2Br)c(O)c2ccccc21	ATCC 28542	agar diffusion	1 mg/mL	12 mm
COc1ccc(C2SCC(=O)N2NC(=O)Cn2c(=O)c(C)nc3ccccc32)cc1OC	-	-	100 µg/mL	13 mm
COc1ccc(-c2nn(-c3ccccc3)cc2C2CC(c3ccc(Cl)cc3Cl)=NN2c2ccccc2)cc1	-	-	500 µg/mL	0 mm
O=C(CNC(=O)c1ccncc1)NN1C(=O)CSC1c1cccc([N+](=O)[O-])c1	-	agar diffusion	100 µg/mL	27.2 mm
O=C(NN1C(=O)CSC1C1C(c2ccccc2)=Nc2ccccc21)N1c2ccccc2C=Cc2ccccc21	MTCC-1973	agar diffusion	750 µg/mL	4 mm
CN(C)c1ccc(C2SCC(=O)N2NC(=O)CNC(=O)c2ccncc2)cc1	-	agar diffusion	100 µg/mL	13.5 mm
COc1c(N2CC3CCCNC3C2)c(F)cc2c(=O)c(C(=O)[O-])cn(C3CC3)c12.[Cl][Zn+].c1c[nH]cn1	-	agar diffusion	100 µM	0 mm
Cc1cc(=O)n(-c2ccc(N=Cc3c(-c4c(O)c5ccccc5n(C)c4=O)[nH][nH]c3=O)cc2)n1C	ATCC 28542	agar diffusion	1 mg/mL	11 mm
Cc1cc(=O)oc2c(C=Nc3cccc4cccc(N=Cc5c(O)ccc6c(C)cc(=O)oc56)c34)c(O)ccc12	-	-	200 µg/mL	18 mm
OC(Cn1cncn1)(Cn1cncn1)c1ccc(F)cc1F	-	-	100 µg/mL	98 mm
O=C(CNC(=O)c1ccncc1)NN1C(=O)/C(=C/c2ccccc2Br)SC1c1ccccc1Br	-	agar diffusion	50 µg/mL	12.5 mm
Cc1nc2ccccc2n(CC(=O)NN2C(=O)CSC2c2ccccc2F)c1=O	-	-	100 µg/mL	14 mm
Cn1c(=O)c(-c2[nH][nH]c(=O)c2N=Nc2ccc(N)cc2)c(O)c2ccccc21	ATCC 28542	agar diffusion	1 mg/mL	10 mm
Cc1ccc2c(c1)C(C1SCC(=O)N1NC(=O)N1c3ccccc3C=Cc3ccccc31)C(c1ccccc1)=N2	MTCC-1973	agar diffusion	1000 µg/mL	6 mm
Cn1c(=O)c(-c2[nH][nH]c(=O)c2C=Nc2ccncc2)c(O)c2ccccc21	ATCC 28542	agar diffusion	1 mg/mL	14 mm
O=C(CNC(=O)c1ccncc1)NN1C(=O)/C(=C/c2ccccc2Cl)SC1c1ccccc1Cl	-	agar diffusion	50 µg/mL	16.1 mm
CN(C)c1ccc(C2c3ccc4ccccc4c3Oc3nc(-c4cc5ccccc5oc4=O)[nH]c(=O)c32)cc1	-	agar diffusion / agar	100 µg/mL	13 mm
Cc1nc2ccccc2n(CC(=O)NN2C(=O)CSC2c2ccc(Cl)cc2)c1=O	-	-	100 µg/mL	23 mm
Cn1c(=O)c(-c2[nH][nH]c(=O)c2N=Nc2ccc(Br)cc2)c(O)c2ccccc21	ATCC 28542	agar diffusion	1 mg/mL	11 mm
Cc1nc2ccccc2n(CC(=O)NN2C(=O)CSC2c2ccccc2O)c1=O	-	-	50 µg/mL	8 mm
C[C@H]1[C@H](O)[C@@H](C)/C=C/C=C/C=C/C=C/C=C/C=C/C=C/[C@H](O[C@@H]2O[C@H](C)[C@@H](O)[C@H](N)[C@@H]2O)C[C@@H]2O[C@](O)(C[C@@H](O)C[C@@H](O)CC[C@H](O)[C@@H](O)C[C@@H](O)CC(=O)O[C@H]1C)C[C@H](O)[C@H]2C(=O)O	-	agar diffusion / agar	150 µg/mL	25 mm
COc1ccc(-c2nn(-c3ccccc3)cc2C2CC(c3ccc(-c4ccccc4)cc3)=NN2c2ccccc2)cc1	-	-	1000 µg/mL	0 mm
COc1c(N2CC3CCCNC3C2)c(F)cc2c(=O)c(C(=O)[O-])cn(C3CC3)c12.[Cl][Mn+].c1c[nH]cn1	-	agar diffusion	100 µM	0 mm
Clc1ccc(C2=NN(c3ccccc3)C(c3cn(-c4ccccc4)nc3-c3ccccc3)C2)c(Cl)c1	-	-	500 µg/mL	0 mm
Cc1nc2ccccc2n(CC(=O)NN2C(=O)CSC2c2ccc(O)cc2)c1=O	-	-	50 µg/mL	12 mm
O=c1[nH]c(-c2cc3ccccc3oc2=O)nc2c1C(c1cccc([N+](=O)[O-])c1)c1ccc3ccccc3c1O2	-	agar diffusion / agar	100 µg/mL	9 mm
CN1C(=O)/C(=c2/[nH][nH]c(=O)/c2=C\c2ccccc2)C(=O)c2ccccc21	ATCC 28542	agar diffusion	1 mg/mL	12 mm
O=c1[nH]c(-c2cc3ccccc3oc2=O)nc2c1C(c1ccccc1)c1ccc3ccccc3c1O2	-	agar diffusion / agar	100 µg/mL	11 mm
CSc1ccc(C2=NN(c3ccccc3)C(c3cn(-c4ccccc4)nc3-c3ccc(Br)cc3)C2)cc1	-	-	1000 µg/mL	4 mm

A second listing of 5 rows from above:

structure	strain	read by	tested at	result
Cc1cc(=O)n(-c2ccc(N=Cc3c(-c4c(O)c5ccccc5n(C)c4=O)[nH][nH]c3=O)cc2)n1C	ATCC 28542	agar diffusion	1 mg/mL	11 mm
C[C@H]1[C@H](O)[C@@H](C)/C=C/C=C/C=C/C=C/C=C/C=C/C=C/[C@H](O[C@@H]2O[C@H](C)[C@@H](O)[C@H](N)[C@@H]2O)C[C@@H]2O[C@](O)(C[C@@H](O)C[C@@H](O)CC[C@H](O)[C@@H](O)C[C@@H](O)CC(=O)O[C@H]1C)C[C@H](O)[C@H]2C(=O)O	ATCC 28542	agar diffusion	1 mg/mL	18 mm
Cn1c(=O)c(-c2[nH][nH]c(=O)c2N=Nc2ccc(Br)cc2)c(O)c2ccccc21	ATCC 28542	agar diffusion	1 mg/mL	11 mm
OC(Cn1cncn1)(Cn1cncn1)c1ccc(F)cc1F	-	-	100 µg/mL	98 mm
COc1c(N2CC3CCCNC3C2)c(F)cc2c(=O)c(C(=O)[O-])cn(C3CC3)c12.[Cl][Mn+].c1c[nH]cn1	-	agar diffusion	100 µM	0 mm

Zones are inhibition diameters on agar. An empty or dashed field is not shown.